Results from publication PMC9003574 (ACS Pharmacology & Translational Science, 2022).
Read-outs that look alike come from different tables or passages of the source.

Columns and labels:
[1] = target: T1, SARS-CoV-2 nsp13 (Severe acute respiratory syndrome coronavirus 2, UniProt P0DTD1); conditions: read-out: unwinding IC50; without BSA/TCEP
[2] = target: T1, SARS-CoV-2 nsp13; assay type: biochemical; conditions: read-out: ATPase IC50; without BSA/TCEP, no nucleic acid

kaempferol-3-O-rutinoside was tested. Which IC50 [1] did it give?
Its IC50 is greater than 30 µM.

What about the IC50 [2] of the same substance?
The IC50 was greater than 30 µM.
